Assay results published in paper PMC3697012.

What was measured:
Test in all cases: purified protein
Settings in all cases: pH 8.0; 37.0 °C
[1] = tested on: C[S@+]([O-])CC[C@H](N)C(=O)O
[2] = tested on: CC(=O)N[C@@H](CC[S@+](C)[O-])C(=O)O
[3] = tested on: CC(=O)N[C@@H](CC[S@@+](C)[O-])C(=O)O

Row | Substance | Km [1] [mM] | Km [2] [mM] | Km [3] [mM]
1 | MsrA (recombinant Mtb MsrA) (Mycobacterium tuberculosis H37Rv) | 4.3 ± 0.6 | 1.6 ± 0.4 | 
2 | MsrB (Rv2674) (Mycobacterium tuberculosis H37Rv) |  |  | 1.7 ± 0.6
